For 6 molecules, Kd and Response results are on record in patent publication US20230374114A1, “Coronavirus antibodies and methods of use thereof” (Dana-Farber, published 2023).

Experiment [1] has as its target B.1.1.7 Spike (SARS-CoV-2). The experiment in a line: biosensor, scFv-Fc loaded at 1 ug/ml, spike in solution at 48.4 nM.
The target in experiment [2] is B.1.351 Spike (SARS-CoV-2). The experiment in a line: biosensor, scFv-Fc loaded at 1 ug/ml, spike in solution at 48.5 nM.
In experiment [3] the target is P.1 Spike (SARS-CoV-2). The experiment in a line: biosensor, scFv-Fc loaded at 1 ug/ml, spike in solution at 48.3 nM.

Residue numbers refer to the chain shown, from its start.

B1: S1-RBD-R3-T1-F5 (Ab2-7) (scFv, V domains shown)
VH: QVTLKESGPTRVKPTQTLTLTCTFSGFSLSTTGVGVGWIRQPPGKALEWLALIYWNDDKRYSPSLKSRLTITKDTSKNQVVLTMTNMDPVDTATYYCARISGSGYFYPFDIWGQGTTVTVSS
VL: NFMLTQPHSVSESPGKTVTISCTRSSGSIASNYVQWYQQRPGSSPTTVIYEDNQRPSGVPDRFSGSIDSSSNSASLTISGLKAEDEADYYCQSYDSSSLWVFGGGTKLTVL
notes: also called Ab 2-7 scFv-Fc
The Kd is the free concentration of one partner at which half of the binding sites on the other are occupied at equilibrium, for simple one-to-one binding. Low values mean a tighter complex, high ones a looser complex. B1: the Kd in experiment [1] was 379 pM; in experiment [2], 360 pM; in experiment [3] it was 7.04 pM. The results for the Response in experiment [1], in experiment [2] and in experiment [3] were 0.127, 0.13 and 0.152, respectively.

B2: RBD-R3-E1-G7 (Ab2-10) (scFv, V domains shown)
VH: EVQLVESGPGLVKPSETLSLTCTVSGGSISSYYWSWIRQPAGKGLEWIGRIYTSGSTNYNPSLKSRVTMSVDTSKNQFSLKLSSVTAADTAVYYCARDVGFGWFDRWGQGTLVTVSS
VL: B1 VL with K82T, A83T, Y94F, S97A
notes: also called Ab 2-10 scFv-Fc
Turning to B2, the Kd in experiment [1] worked out at 682 pM; in experiment [2], 523 pM; in experiment [3] it was 6.67 pM. Also, the Response in experiment [1] came out at 0.0939; in experiment [2], 0.103; in experiment [3] it was 0.0969.

B3: Ab_13 (scFv, V domains shown)
VH: B1 VH with T10K, R11L, T32S, N56D, T72A, N78Y, T117M, S122A
VL: B1 VL with S44A, A83T, S98N
On to B3, for which the Kd was determined as 1.91 pM in experiment [1], 735 pM in experiment [2] and 4.88 pM in experiment [3]. The Response in experiment [1] is 0.113; in experiment [2], 0.103; in experiment [3], 0.112.

B4: S1-R3-T1-H7 (Ab12) (scFv, V domains shown)
VH: EVQLVESGPGVVSPSATLFLTCSVSGGSIRTHSWNWIRQPPGKPLEWIGFIHHSGATNKNPSLKSRVTISSDTSKNEFSLTLTSVTAADTAVYYCARGPGILSYWSRGTLVTVSS
VL: LPVLTQPPSASGTPGQRVTISCSGSSSNIGSNTVNWYQQLPGTAPKLLIYSNNQRPSGVPDRFSGSKSGTSASLAISGLQSEDEADYYCAAWDDSLNVHYVFGSGTKVTVL
notes: also called Ab 12 scFv-Fc
Turning to B4, the Kd in experiment [1] came out at 2.73 pM; in experiment [2], 1450 pM; in experiment [3], 8.55 pM. Further, the figures for the Response in experiment [1], in experiment [2] and in experiment [3] were 0.177, 0.0737 and 0.0718, respectively.

B5: RBD-R3-T1-F4 (Ab2-2) (scFv, V domains shown)
VH: QVQLVQSGGGVVQPGRSLRLSCAASGFTFSHYDMHWVRQAPGKGLEWLAVIGYDGTNLYYADSVKGRFTISRDKSKNTLYLQINSLRAEDTAVYYCARAANYYDSSGYGRADAFDIWGQGTTVTVSS
VL: NFMLTQPHSVSESPGKTVIISCTRTTGSIAGNYVQWYRQRPGSAPTTVIYDDNQRPAGVPDRFSGSVDSSSNSASLTITGLKTEDEADYYCQSYDSGNRGVFGTGTKLTVL
notes: also called Ab 2-2 scFv-Fc
With B5, the results for the Kd in experiment [1], in experiment [2] and in experiment [3] were 3.06 pM, 6.53 pM and 8.94 pM, respectively. The Response in experiment [1] came out at 0.135; in experiment [2], 0.118; in experiment [3] it was 0.143.

B6: Ab_17 (scFv, V domains shown)
VH: QVQLVQSGGGVVQPGRSLRLSCAASGFTFDDYAMHWVRQVPGKGLEWVSGIDWNSGVIGYADSVKGRFTISRDNVKNSLYLQMNSLRTEDSALYYCAKDIGPGGSGSYYAFDIWGQGTTVTVSS
VL: QSALTQPASVSGSPGQSITISCTGTSSDVGGSKYVSWYQQHPGKAPKVMIYDVTKRPSGVPDRFSGSKSGNTASLTISGLQAEDEADYYCAAWDDSLNGVVFGGGTKLTVL
notes: also called Ab 17 scFv-Fc
In experiment [2], B6 had a Kd of 562 pM and a Response of 0.199. For the same molecule, in experiment [3], binding was characterised by a dissociation constant (Kd) of 8 pM and the Response was 0.177.
